# Patent publication US20170226204A1 (PERONGEN BIOTHERAPEUTICS SUZHOU, published 2017)
# T1: human CD7 molecule (human, UniProt P09564 26-240)
# T1 sequence (looked up): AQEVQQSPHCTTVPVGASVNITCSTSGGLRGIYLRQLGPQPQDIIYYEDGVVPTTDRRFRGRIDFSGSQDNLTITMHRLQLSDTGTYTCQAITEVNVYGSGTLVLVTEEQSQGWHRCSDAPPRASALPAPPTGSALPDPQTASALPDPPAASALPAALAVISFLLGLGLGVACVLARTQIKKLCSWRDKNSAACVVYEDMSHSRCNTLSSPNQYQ
# Target: T1, human CD7 molecule
# Experiment: cell-based or functional assay
binder,measurement,value
monovalent Nanobody immunotoxin PG001 (VHH-6-PE38) (other) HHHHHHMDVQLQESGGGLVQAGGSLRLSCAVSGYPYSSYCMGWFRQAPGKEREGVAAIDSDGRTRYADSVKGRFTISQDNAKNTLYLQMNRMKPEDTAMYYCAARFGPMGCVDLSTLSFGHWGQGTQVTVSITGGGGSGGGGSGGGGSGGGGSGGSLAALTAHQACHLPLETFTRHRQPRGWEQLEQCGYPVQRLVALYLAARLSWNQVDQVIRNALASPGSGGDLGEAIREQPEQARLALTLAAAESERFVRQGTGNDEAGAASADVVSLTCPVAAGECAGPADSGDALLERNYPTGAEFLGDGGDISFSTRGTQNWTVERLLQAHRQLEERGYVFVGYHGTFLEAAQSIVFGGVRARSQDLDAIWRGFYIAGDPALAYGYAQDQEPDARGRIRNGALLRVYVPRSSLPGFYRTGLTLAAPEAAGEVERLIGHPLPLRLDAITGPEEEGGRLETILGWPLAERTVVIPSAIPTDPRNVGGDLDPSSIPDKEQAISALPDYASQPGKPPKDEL,"inhibition of proliferation of CEM cells (WST-8, 72 h), EC50",~0.5 nM
same,"inhibition of proliferation of Jurkat cells (WST-8, 72 h), EC50",~1 nM
